A mixed list of measured activities; the numbers were collected in NIAID ChemDB.

Common to all: tests in culture; species: Rhinovirus; measure: inhibition

Inhibition is in % at the dose shown (toxicity tests: loss of growth or viability). An empty or dashed field is not shown. Rows are shuffled and stem from different studies.

smiles | dose | read by | cell line | strain | value
NCS(=O)(=O)O | 10 µg/mL | cytopathic effect | Human embryonic lung cells | - | 90%
CN(C)c1nc(C(F)(F)F)nc2c1ncn2Cc1cccc(F)c1 | 8 µM | plaque count | M-HELA | Serotype 3 | 35%
CCOc1cc(O)c(C(=O)/C=C/c2ccc(OC)cc2)c(OC)c1 | 0.269 µg/mL | - | - | 17 serotypes | 53%
CC(C)Oc1ccc(Cn2cnc3c(N(C)C)nc(C(F)(F)F)nc32)cc1 | 8 µM | plaque count | M-HELA | Serotype 13 | 39%
N#Cc1cc([N+](=O)[O-])ccc1Oc1ccc(Cl)c(Cl)c1 | 6.25 µg/mL | - | VERO | TYPE 1A | 82%
CC1(C)COC(c2ccc(OCCN3CCN(c4ccc(Cl)nn4)CC3)cc2)=N1 | 32 µg/mL | - | - | 100 serotypes | 71%
CN(C)c1nc(C(F)(F)F)nc2c1ncn2Cc1ccc(F)cc1 | 8 µM | plaque count | M-HELA | Serotype 31 | 47%
NCCS(=O)(=O)O | 50 µg/mL | cytopathic effect | Human embryonic lung cells | - | 10%
Cc1cccc(N2CCN(c3ccc(Br)nn3)CC2)c1 | 9 µg/mL | - | - | 17 serotypes | 71%
Nc1c(S(=O)(=O)[O-])cc2cc(S(=O)(=O)[O-])ccc2c1O | 5 µg/mL | cytopathic effect | Human amnion AV3 cells | - | 0%
CN(C)c1ccc(Cn2cnc3c(N(C)C)nc(C(F)(F)F)nc32)cc1 | 8 µM | plaque count | M-HELA | Serotype 3 | 33%
O=C(Nc1cc(S(=O)(=O)[O-])cc2cc(S(=O)(=O)[O-])ccc12)c1ccccc1 | 10 µg/mL | cytopathic effect | Human embryonic lung cells | - | 10%
COc1ccc(N2CCN(c3cccc(C)c3)CC2)nn1 | 6 µg/mL | - | - | 17 serotypes | 53%
CSc1ccc(Cn2cnc3c(N(C)C)nc(C(F)(F)F)nc32)cc1 | 8 µM | plaque count | M-HELA | Serotype 3 | 39%
Cc1cc(-c2ccc(N=Nc3c(N)c(S(=O)(=O)O)cc4cc(S(=O)(=O)O)ccc34)c(C)c2)ccc1N=Nc1c(N)ccc2cc(S(=O)(=O)O)ccc12 | 50 µg/mL | cytopathic effect | Human embryonic lung cells | - | 100%
Cc1ccc(N2CCC(c3cccc(C(F)(F)F)c3)C2)nn1 | 5.7 µg/mL | - | - | 100 serotypes | 71%